Compound potency records, mixed from different reports. Data source: NIAID ChemDB in PubChem.

All rows: cytotoxicity tests; cell line: HeLa; endpoint: CC50

CCn is the concentration with n% toxicity to the cells. Conditions beyond the fields shown may differ between rows.

smiles,value
Nc1ncnc2c([C@@H]3O[C@H](CCl)[C@@H](O)[C@H]3O)[nH]nc12,400 µg/mL
COc1cc(/C=C/C(=O)Oc2c(-c3ccc(Cl)c(Cl)c3)oc3ccccc3c2=O)ccc1OC(C)=O,0.72 µM
O=C1c2ccccc2OCC1Cc1ccc(O)cc1,1.56 µM
C=CCc1nc(C)n2c(=O)[nH]c(=S)[nH]c12,200 µg/mL
COc1ccc(CC2COc3ccccc3C2=O)cc1,6.25 µM
Nc1ncnc2c1ncn2CC[C@H](O)CCO,>400 µg/mL
Nc1ncnc2c1ncn2C1CC(CO)[C@@H](O)[C@H]1O,10 µg/mL
CO[C@H](CO)[C@@H](O)CCn1cc(C)c(=O)[nH]c1=O,>400 µg/mL
Nc1ncnc2c1CCN2[C@@H]1O[C@H](CO)C[C@H]1O,40 µg/mL
O=C(/C=C/c1ccc(O)c(O)c1)Oc1c(-c2ccc(Cl)c(Cl)c2)oc2ccccc2c1=O,1.41 µM
CON1CCc2c([nH]c3ccccc23)[C@@H]1[C@@H](N)CSC,40 µg/mL
Nc1ncnc2c1ncn2[C@@H]1C[C@@H](O)[C@@H](O)[C@H]1O,>400 µg/mL
N=c1ccn2c(n1)O[C@H]1[C@H](O)[C@@H](CO)O[C@H]12,0.05 µg/mL
O=c1c(O)c(-c2ccc(Cl)cc2)oc2ccccc12,1.49 µM
COc1ccc(Cc2coc3ccccc3c2=O)cc1,50 µM
Cc1cn([C@H]2O[C@H](CO)[C@@H](N=[N+]=[N-])[C@H]2F)c(=O)nc1N,>400 µg/mL
O=c1c(Cc2ccccc2)coc2ccccc12,50 µM
CO[C@@H]1[C@@H](OC(N)=O)[C@@H](O)[C@H](Oc2ccc3c(O)c(NC(=O)c4ccc(O)c(CC=C(C)C)c4)c(=O)oc3c2C)OC1(C)C,28 µg/mL
O=C1/C(=C/c2ccc(O)cc2)COc2ccccc21,6.25 µM
CO[C@H](CO)[C@@H](O)CCn1cnc2c(N)ncnc21,>400 µg/mL
O=C1/C(=C/c2ccc(Cl)cc2)COc2ccccc21,6.25 µM
[N-]=[N+]=N[C@H]1[C@@H](F)[C@H](n2cnc3c(N)ncnc32)O[C@@H]1CO,>400 µg/mL
Nc1ncnc2c([C@@H]3O[C@H](CSCCC(N)C(=O)O)C[C@H]3O)[nH]nc12,100 µg/mL
COc1ccc(Cc2coc3cc(OC)cc(OC)c3c2=O)cc1,1.56 µM

Again, the opening 2 rows:

smiles,value
Nc1ncnc2c([C@@H]3O[C@H](CCl)[C@@H](O)[C@H]3O)[nH]nc12,400 µg/mL
COc1cc(/C=C/C(=O)Oc2c(-c3ccc(Cl)c(Cl)c3)oc3ccccc3c2=O)ccc1OC(C)=O,0.72 µM